Measured values from paper PMC11334520, “In vitro higher-order oligomeric assembly of the respiratory syncytial virus M2-1 protein with longer RNAs”.
The exact form of at least one protein or probe is not confirmed. At least one verdict was read from the data and is not stated in words by the source. Protein sequences can lack the tags named with them.

Legend:
[1] = biological target: T1, M2-1 (human respiratory syncytial virus (strain A2)) (UniProt P04545); assay: SEC; conditions: excess RNA; SEC: Superdex 200 Increase 10/300, buffer not given; recombinant protein; residues 1-194; protein details: N-terminal His6-GFP, cleaved with TEV
T1 sequence (looked up): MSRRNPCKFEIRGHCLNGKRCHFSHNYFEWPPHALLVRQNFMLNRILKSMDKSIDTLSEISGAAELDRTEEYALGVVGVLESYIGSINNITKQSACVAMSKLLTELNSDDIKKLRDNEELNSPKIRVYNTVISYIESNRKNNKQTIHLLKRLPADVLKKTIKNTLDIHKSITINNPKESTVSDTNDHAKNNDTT

[2] = biological target: T1, M2-1 (human respiratory syncytial virus (strain A2)); assay: negative stain EM; conditions: M2-1:RNA 15.1, 1.8, 0.4, particles about 140 A; SEC: Superdex 200 Increase 10/300, buffer not given; recombinant protein; residues 1-194; protein details: N-terminal His6-GFP, cleaved with TEV
[3] = biological target: T1, M2-1 (human respiratory syncytial virus (strain A2)); assay: EMSA; conditions: EDTA gradient, complex unchanged; EMSA: 20 mM HEPES pH 7.5, 200 mM NaCl, 2 mM TCEP, 5% glycerol, room temperature 1 h, 4% native PAGE, SYBR Gold; recombinant protein; residues 1-194; protein details: N-terminal His6-GFP, cleaved with TEV

| Sequence | binding result [1] | binding result [2] | binding result [3] |
| --- | --- | --- | --- |
| AAAAAAAAAAAAAAA [Poly15A] | binds | – | – |
| AAAAAAAAAAAAAAAAAAAAAAAA [Poly24A] | – | binds | binds |
